In paper PMC6753678, “Fueling Open Innovation for Malaria Transmission-Blocking Drugs: Hundreds of Molecules Targeting Early Parasite Mosquito Stages” (Frontiers in Microbiology, 2019):

What was measured:
[1] = system: P. falciparum female gametocytes; test: P. falciparum female gametogenesis assay (Pf FGAA); details: unified cytotox over Pf FGAA IC50; red: <10-fold selectivity; green: >10-fold
[2] = system: P. falciparum late stage (stages IV-V) gametocytes; test: P. falciparum late stage gametocyte ATP depletion assay (Pf GC-ATP); details: unified cytotox over Pf GC-ATP IC50; red: <10-fold selectivity; green: >10-fold

SMILES | Assay tox ratio Pf FGAA [1] | Assay tox ratio Pf GC-ATP [2]
CS(=O)(=O)O.FC(F)(F)COc1ccc2ccccc2c1CCNCCCCNCCc1c(OCC(F)(F)F)ccc2ccccc12 [TCMDC-137317] | 2.68 | 1.97
c1cc(Nc2nc(-c3ccc(-c4csc(Nc5ccncc5)n4)cc3)cs2)ccn1 [TCMDC-139725] | 336.68 | 37.62
Cl.c1ccc2c(NCCCCCCCCCNc3ccnc4ccccc34)ccnc2c1 [TCMDC-137750] | 2.60 | 2.14
CN(CCCCN)Cc1ccc(-c2ccc(Cl)cc2)cc1 [TCMDC-140123] | 2.39 | 9.12
CC(C)(C)c1ccc(-c2nc3c(ccc4nc(N)nc(N)c43)[nH]2)cc1.Cl [TCMDC-137984] | 11.58 | 14.55
CCCCCCCCN1CCN(CCCCCCNc2c3ccccc3nc3ccccc23)CC1.Cl [TCMDC-138015] | 5.06 | 12.90
C[C@H](Cc1ccc(OCCCCCOc2ccc(C[C@@H](C)NC[C@H](O)c3cccc(Cl)c3)cc2)cc1)NC[C@H](O)c1cccc(Cl)c1.Cl [TCMDC-131563] | 2.03 | 3.55
CCc1c(CCNCCCCCCNC(C)Cc2ccc3c(c2CC)OCO3)ccc(OC)c1OC.Cl (stereo not shown) [TCMDC-132052] | 5.78 | 8.55
CC(C)(C)c1ccc(-c2cc3c(ccc4nc(N)nc(N)c43)[nH]2)cc1 [TCMDC-137977] | 3.33 | 4.66
Fc1ccc2[nH]c(-c3cccc(-c4ccc(CN5CCC(CCN6CCCCC6)CC5)cc4)c3)nc2c1.O=C(O)C(F)(F)F [TCMDC-133940] | 2.65 | 11.52
C[C@H](Cc1ccc(CCc2ccc(C[C@@H](C)NC[C@H](O)c3cccc(Cl)c3)cc2)cc1)NC[C@H](O)c1cccc(Cl)c1.Cl [TCMDC-131551] | 1.80 | 13.81
Cc1cc(OCCN2CCCCC2)ccc1NC(=O)c1cccc2c(=O)n(Cc3ccc(Cl)cc3)cnc12 [TCMDC-136727] | 3.17 | 4.68
CN(C)CCNCc1ccc(-c2ccc3c(Nc4ccc(Oc5ccccc5)cc4)ccnc3c2)o1 [TCMDC-138399] | 4.26 | 20.40
COc1ccc(CNC(=O)c2cnc3c(O)cccc3c2Nc2cccc(NC(=O)c3ccc(Cl)c(Cl)c3)c2)cc1.O=C(O)C(F)(F)F [TCMDC-139607] | 0.97 | 2.29
C=CCN(C(=O)c1ccc(Cl)c([N+](=O)[O-])c1)c1nc(-c2ccccc2)cs1 [TCMDC-124436] | 775.01 | 949.37
COc1ccc(CNC2Cc3ccccc3C2)cc1-c1ccc(OC)c(S(=O)(=O)NCCN2CCCC2)c1.O=C(O)C(F)(F)F [TCMDC-132251] | 4.40 | 10.43
CC(=O)c1ccc2nc[nH]c(=O)c2c1 [TCMDC-138172] | 3.82 | 9.35
COc1cc2nc(N3CCC(CNCc4ccc(-c5ccc(C(F)(F)F)cc5)cc4)CC3)nc(N)c2cc1OC [TCMDC-138757] | 14.62 | 80.89
CC(C)NCc1ccc(OCc2cccc(COc3ccc(CNC(C)C)cc3I)c2)c(I)c1.Cl [TCMDC-137259] | 2.48 | 15.58
Nc1c(Cl)cc(C(O)CNCCCCCOCCCc2ccc(O)c3ncccc23)cc1Cl.O=C(O)/C=C/C(=O)O (stereo not shown) [TCMDC-132088] | 2.92 | 13.49
CC(Cc1ccc(CNC(=O)c2ccc(CC(C)NCCc3cccc(Cl)c3)cc2)cc1)NCCc1cccc(Cl)c1 (stereo not shown) [TCMDC-139659] | 3.14 | 4.75
N=C(/N=C(/NCCCCCCN/C(=N\C(=N)Nc1ccc(Cl)cc1)N1CCCCC1)N1CCCCC1)Nc1ccc(Cl)cc1 [TCMDC-131811] | 4.26 | 89.51
CS(=O)(=O)O.FC(F)(F)COc1ccc2ccccc2c1CNCCCCCCNCc1c(OCC(F)(F)F)ccc2ccccc12 [TCMDC-137816] | 2.25 | 6.60
NCc1ccc(CNCc2cccc(-c3ccc(-c4nc5cc(C(F)(F)F)ccc5[nH]4)cc3)c2)cc1.O=C(O)C(F)(F)F [TCMDC-132811] | 23.52 | 22.78
COc1cc(-c2cc(-c3ccc(S(C)(=O)=O)cc3)cnc2N)ccc1O [TCMDC-133343] | 126.34 | 39.91
COc1ccc(CCNCCCCCCNCCc2ccc(Cl)c3ccccc23)cc1OC.Cl [TCMDC-131270] | 4.63 | 21.12
COc1c(OC)c(OC)c2ccccc2c1CNCCCCCCNCc1c(OC)c(OC)c(OC)c2ccccc12.Cl [TCMDC-137827] | 1.84 | 2.69

SMILES | Assay tox ratio Pf FGAA [1] | Assay tox ratio Pf GC-ATP [2]
COc1ccc(-c2cnc3[nH]cc(-c4ccncc4)c3c2)cc1OC [TCMDC-135853] | 3.29 | 8.30
Cc1n[nH]c2ccc(-c3ccc4nccc(N5CCC(N)CC5)c4c3)cc12.Cl [TCMDC-134315] | 3.78 | 24.18
C=CCC1OC(=O)c2cc(OC)cc(OC)c21 (stereo not shown) [TCMDC-138677] | 6.74 | 4.05
O=C(O)CCSSc1cccc[n+]1[O-] [TCMDC-141973] | 492.91 | 71.31
CC(C)COc1ccc2ccccc2c1CNCCCCCCNCc1c(OCC(C)C)ccc2ccccc12.CS(=O)(=O)O [TCMDC-137972] | 2.50 | 19.69
CCOc1ccc2nc3cc(NC(=O)c4ccco4)ccc3c(N)c2c1 [TCMDC-125004] | 3.90 | 95.80
CC(C)Oc1ccc2ccccc2c1CNCCCCCCNCc1c(OC(C)C)ccc2ccccc12.CS(=O)(=O)O [TCMDC-137965] | 2.26 | 15.31
COc1cc2nc(NCCCN3CCCCC3)nc(NCc3ccccc3)c2cc1OC [TCMDC-132012] | 8.79 | 26.59
COc1ccc(CNCCCCCCNCc2ccc(OC)c3ccccc23)c2ccccc12.Cl [TCMDC-137631] | 3.37 | 4.83
CC(C)(C)c1ccc(CN2CCC(CNC(=O)c3cc(-c4cccc(C(F)(F)F)c4)cs3)C2)cc1.O=C(O)C(F)(F)F (stereo not shown) [TCMDC-134442] | 5.96 | 13.44
Cc1c(Cl)cccc1N=C(S)NN=Cc1ccccn1 [TCMDC-125487] | 3567.00 | 370.37
Nc1nc(N)c2c(ccc3c2ccn3Cc2ccc(-c3ccccc3)cc2)n1 [TCMDC-137813] | 0.68 | 0.95
CN1CCN(CCCN(Cc2cccc(-c3ccc(CNCCc4ccccc4)cc3)c2)C(=O)c2cccs2)CC1.O=C(O)C(F)(F)F [TCMDC-140568] | 3.39 | 6.50
Cl.c1ccc2c(Nc3ccc(Cc4ccc(Nc5c6ccccc6nc6ccccc56)cc4)cc3)c3ccccc3nc2c1 [TCMDC-137354] | 4.00 | 1.81
CNCCNc1nccc(N2CCc3ncnc(Nc4ccc(OCc5cccc(F)c5)c(Cl)c4)c3C2)n1 [TCMDC-135478] | 3.82 | 9.61
N=C(NCC1CC1c1ccccc1)c1cccc(C(=N)NCC2CC2c2ccccc2)n1 (stereo not shown) [TCMDC-137456] | 3.44 | 14.45
[O-][s+]1c(Cl)c(-c2ccc(Cl)cc2)c2ccc(Cl)cc21 (stereo not shown) [TCMDC-124011] | 329.88 | 603.77
Cl.c1ccc2c(C3CCN(CCCCOc4ccc5c(c4)CCN(CC4CC4)CC5)CC3)c[nH]c2c1 [TCMDC-136244] | 5.20 | 8.42
CS(=O)(=O)O.FC(F)(F)COc1ccc(CCNCCCCNCCc2ccc(OCC(F)(F)F)c3ccccc23)c2ccccc12 [TCMDC-137282] | 11.50 | 87.37
COc1cccc(-c2csc(C(=O)NCC3CCN(Cc4ccc(C(C)(C)C)cc4)C3)c2)c1.O=C(O)C(F)(F)F (stereo not shown) [TCMDC-134447] | 11.68 | 33.21
COc1c(C2CCN(CCN3CCC(CNC(=O)c4ccc(-c5ccc(C#N)cc5)cc4)CC3)CC2)ccc2c1CCCC2 [TCMDC-138859] | 2.30 | 2.89
Fc1ccc(OC2CN(c3nccc(NCc4ccccc4Cl)n3)C2)cc1 [TCMDC-135110] | 15.99 | 33.20
COc1ccc(Nc2nccc(-c3ccc4ccnc(NCCCCN)c4c3)n2)cc1 [TCMDC-136642] | 9.46 | 43.74
CNC(=S)NN=C(C)c1ccccn1 [TCMDC-123475] | 1788.22 | 21.37
COc1cc2nc(N3CCC(CNC(=O)c4ccc(-c5ccc(-c6noc(C)n6)cc5)cc4)CC3)nc(N)c2cc1OC [TCMDC-138754] | 4.40 | 41.95
Cc1ccc(C(=O)Nc2ccc(Nc3ccnc4cc(-c5ccccn5)ccc34)cc2O)cc1.Cl [TCMDC-138205] | 4.04 | 4.57
